Assay results: PMC8989888, “Development of optimized drug-like small molecule inhibitors of the SARS-CoV-2 3CL protease for treatment of COVID-19” (Nature Communications, 2022)
Where “and” joins values, the source holds several entries; their conditions need not be identical. Identical values can stand only once. Like-named read-outs stand apart in the source and are kept apart here.

Legend:
SARS-CoV-2 3CL protease [1] = biological target: T1, SARS-CoV-2 3CL protease (Severe acute respiratory syndrome coronavirus 2, UniProt P0DTD1); assay: SARS-CoV-2 3CL protease inhibition, fluorogenic peptide substrate; assay type: biochemical
SARS-CoV-2 3CL protease [2] = biological target: T1, SARS-CoV-2 3CL protease; assay: Mass spectrometry analysis of protein-inhibitor complex; assay type: binding
human chymotrypsin = assay: Chymotrypsin activity assay (Panc-1 cell lysate); settings: 10µM inhibitor; DMSO about 1, no lysate (negative control) 0; three replicates
SARS-CoV-2 = SARS-CoV-2 viral inhibition in Huh-7ACE2 cells; settings: read-out: SARS-CoV-2 Huh-7ACE2 EC50; Huh-7ACE2, 24 h, MOI 0.05
[3] = read-out: SARS-CoV-2 3CLpro IC50, 20 nM protease

Structure (SMILES) | Normalized SARS-CoV-2 3CL protease activity (SARS-CoV-2 3CL protease [1]; 0.2 µM protease with 50 µM tested compound, replicates, listed as AZVIII 34D) | IC50 (SARS-CoV-2 3CL protease [1]; 200 nM protease) | Protease activity (normalized) (SARS-CoV-2 3CL protease [1]; 200 nM protease, log10[nM] 1.35912, replicates) | Protease activity (normalized) (SARS-CoV-2 3CL protease [1]; 200 nM protease, log10[nM] 2.79048, replicates) | Protease activity (normalized) (SARS-CoV-2 3CL protease [1]; 200 nM protease, log10[nM] 4.22185, replicates) | IC50 (SARS-CoV-2 3CL protease [1]; [3]) | binding to 3CL protease by mass spectrometry (in words) (SARS-CoV-2 3CL protease [2]) | Protease activity in cell lysate normalised to DMSO (Figure S22D) (human chymotrypsin) | EC50 (SARS-CoV-2)
CCOC(=O)C=CC(CC1CCNC1=O)NC(=O)C(CC(C)C)NC(=O)C(NC(=O)OCc1ccccc1)C(C)OC(C)(C)C (stereo not shown) [compound 4] | 0.01471 and 0.01456 and 0.005221 | 9700 nM | 0.8103 and 0.7555 and 0.5396 | 0.5696 and 1.044 and 0.8978 | 0.1536 and 0.09865 and 0.08845 | – | – | – | –
CC(C)C[C@H](NC(=O)OCc1ccccc1Cl)C(=O)N[C@H](C=O)C[C@@H]1CCNC1=O | – | – | – | – | – | 10 nM | blocked covalent binding of 10 equivalents of compound 4 | 0.9365 and 0.8801 and 0.9265 | 8 nM
CC(C)C[C@H](NC(=O)OCc1cccc(Cl)c1)C(=O)N[C@H](C=O)C[C@@H]1CCNC1=O | – | – | – | – | – | 9 nM | blocked covalent binding of 10 equivalents of compound 4 | 0.933 and 0.8892 and 0.9601 | 26 nM
